A mixed list of measured activities; the numbers were collected in NIAID ChemDB.

All rows: tests in culture; species: HIV-2; measure: EC50

Conditions beyond the fields shown may differ between rows. An empty or dashed field is not shown. ECn: concentration that inhibits the pathogen or its effect by n%.

compound | changes | cell line | strain | method | value
Cc1ccc2nc(Nc3nc(Nc4ccc(C#N)cc4)nc(Oc4cc(=O)n(C)c5ccccc45)n3)sc2c1 |  |  | ROD | MTT | >3.88 µg/mL
N#C/C(=C\c1ccccc1)Sc1ccccc1O |  | CEM + CEM-SS | ROD | syncytia | >4 µg/mL
Cc1ccnc2c1NC(=O)c1cccnc1N2C1CC1 |  | MT-4 | ROD | MTT | >4 µM
Cn1cc(NC(=O)Nc2cc(C(=O)Nc3cc(C(=O)Nc4cc(S(=O)(=O)O)c5cc(S(=O)(=O)O)cc(S(=O)(=O)O)c5c4)n(C)c3)n(C)c2)cc1C(=O)Nc1cc(C(=O)Nc2cc(S(=O)(=O)O)c3cc(S(=O)(=O)O)cc(S(=O)(=O)O)c3c2)n(C)c1 |  | CEM + CEM-SS | ROD | cytopathic effect / XTT | 4.2 µM
CC(C)[C@H](NC(=O)CCc1nc2ccccc2[nH]1)C(=O)N[C@@H](Cc1ccccc1)[C@@H](O)[C@@H](NCc1ccccc1)C(=O)N[C@H](C(=O)NCc1ccccc1)C(C)C |  | MT-4 | EHO | p24 | 0.62 µM
O=c1ccn([C@H]2CCC[C@H]2CO)c(=O)[nH]1 |  | CEM |  | cytopathic effect | >100 µg/mL
Brc1cccc(-c2nnc3sc(CC45CC6CC(CC(C6)C4)C5)nn23)c1 |  | MT-4 | ROD | cytopathic effect / MTT | >125 µg/mL
COc1ccc2nc(Nc3nc(Nc4ccc(C#N)cc4)nc(Oc4cc(=O)n(C)c5ccccc45)n3)sc2c1 |  |  | ROD | MTT | >72.13 µg/mL
Cc1cn([C@H]2C[C@H](N=[N+]=[N-])[C@@H](CO)O2)c(=O)[nH]c1=O |  | CEM | ROD | syncytia | 0.004 µM
O=S(=O)(O)c1cc(Cl)cc(Cc2cc(Cl)cc(S(=O)(=O)O)c2O)c1O |  | MOLT-4/HUT-78 |  | syncytia | >100 µg/mL
CC(C)[C@H](NC(=O)[C@H](NCc1ccccc1)[C@H](O)[C@H](Cc1ccccc1)NC(=O)[C@@H](NC(=O)OCc1ccccc1)C(C)(C)C)C(=O)NCc1ccccc1 |  | MT-4 | EHO | p24 | 0.714 µM
Cn1c(Sc2ccncc2)c([N+](=O)[O-])c(=O)n(C)c1=O |  | MT-4 | ROD |  | 2.54 µg/mL
Fc1ccccc1-c1nnc2sc(CC34CC5CC(CC(C5)C3)C4)nn12 |  | MT-4 | ROD | cytopathic effect / MTT | >14.9 µg/mL
CC(C)(C)[Si](C)(C)OCC1O[C@@H](NC(=O)NC(=O)c2ccccc2)C(O[Si](C)(C)C(C)(C)C)C12OS(=O)(=O)C=C2N |  | MT-4 | ROD | cytopathic effect / trypan blue | >10 µM
Cc1cc(C)c(CS(=O)c2cccc[n+]2[O-])c(C)c1 |  | MAGI | ROD | β-galactosidase | 20 µg/mL
Cc1ccc(/C=C/C(=O)C2CCC3C4CC=C5C[C@@H](O)CC[C@]5(C)C4CC[C@]23C)cc1 |  | MT-4 | ROD | MTT | >51.7 µM
Cc1cn([C@@H]2O[C@@H]3CN[C@@]4(OCCOc5ccccc5)CS(=O)(=O)O[C@@]34[C@H]2O)c(=O)[nH]c1=O |  | CEM | ROD |  | >250 µM
CC(C)CCC[C@@H](C)[C@H]1CC[C@H]2[C@@H]3CC[C@H]4C[C@@H](NC(=O)CC=C(c5cc(Cl)c(O)c(C(=O)O)c5)c5cc(Cl)c(O)c(C(=O)O)c5)CC[C@]4(C)[C@H]3CC[C@]12C |  | MT-4 | ROD | cytopathic effect / MTT | 14.2 µM
Cc1cn([C@@H]2O[C@H](CO[Si](C)(C)C(C)(C)C)C3(OS(=O)(=O)C=C3N)[C@H]2O[Si](C)(C)C(C)(C)C)c(=O)n(CCCCCCCCn2c(=O)c(C)cn([C@H]3C[C@H](N=[N+]=[N-])[C@@H](CO)O3)c2=O)c1=O |  | CEM(TK-) + CEM TK- | ROD | syncytia | >100 µM
CC(C)[C@H](NC(=O)OCc1ccccc1)C(=O)N[C@@H](Cc1ccccc1)[C@@H](O)[C@@H](NCc1ccccc1)C(=O)N[C@H](C(=O)NCc1nc2ccccc2[nH]1)C(C)C |  | MT-4 | EHO | p24 | 0.805 µM
C[C@]12CCC3C(CC=C4C[C@@H](O)CC[C@@]43C)C1CCC2C(=O)/C=C/c1ccccc1C(=O)O |  | MT-4 | ROD | MTT | >13.98 µM
Nc1nc2c(ncn2COCCO)c(=O)[nH]1 |  | MT-4 | ROD | cytopathic effect / MTT | >555 µM
O=c1c([N+](=O)[O-])c(Sc2ccccc2)nc2[nH]c(-c3ccccc3)cn12 |  | MT-4 | ROD |  | >2.56 µg/mL
O=S(=O)(Cc1ccc(CS(O)(O)c2ccc[n+]([O-])c2)cc1)c1cccc[n+]1[O-] |  | CEM + CEM-SS | ROD | syncytia | ≥20 µg/mL
Fc1ccc(-c2nnc3sc(CC45CC6CC(CC(C6)C4)C5)nn23)cc1 |  | MT-4 | ROD | cytopathic effect / MTT | >65.33 µg/mL
COc1cc(-c2ccc(N=Nc3ccc4c(S(=O)(=O)O)cc(S(=O)(=O)O)c(N)c4c3O)c(OC)c2)ccc1N=Nc1ccc2c(S(=O)(=O)O)cc(S(=O)(=O)O)c(N)c2c1O |  | CEM + CEM-SS | ROD | cytopathic effect / XTT | 1.8 µM
Cn1c(Sc2ccccc2)c([N+](=O)[O-])c(=O)n(C)c1=O |  | MT-4 | ROD |  | >81.2 µg/mL
Cc1cn([C@@H]2O[C@@H]3CN[C@@]4(OCCOc5ccccc5)CS(=O)(=O)O[C@@]34[C@H]2O[Si](C)(C)C(C)(C)C)c(=O)[nH]c1=O |  | CEM | ROD |  | >5 µM
C=C1[C@H](CO)[C@H]1Cn1cnc2c(N)nc(N)nc21 |  |  |  |  | >100 µM
Cc1cn([C@H]2C[C@H](N=[N+]=[N-])[C@@H](CO)O2)c(=O)[nH]c1=O |  | MT-4 | ROD | MTT | 0.021 µM
Clc1ccccc1-c1nnc2sc(CC34CC5CC(CC(C5)C3)C4)nn12 |  | MT-4 | ROD | cytopathic effect / MTT | >12.4 µg/mL
COC(=O)C(C)(C)NP(=O)(OC[C@@H]1C=C[C@H](n2cc(C)c(=O)[nH]c2=O)O1)Oc1ccccc1 |  | CEM + CEM TK- |  |  | 0.6 µM
CC(C)[C@H](NC(=O)[C@H](NCc1ccc(Cl)cc1)[C@H](O)[C@H](Cc1ccccc1)NC(=O)[C@@H](NC(=O)OCc1ccccc1)C(C)(C)C)C(=O)NCc1nc2ccccc2[nH]1 |  | MT-4 | ROD | p24 | 0.3 µM
O=c1[nH]c(=O)n([C@H]2CCC[C@H]2CO)cc1I |  | CEM |  | cytopathic effect | 12.5 µg/mL
CC(C)[C@H](NC(=O)OCc1ccccc1)C(=O)N[C@@H](Cc1ccccc1)[C@@H](O)[C@@H](NCc1ccccc1)C(=O)N[C@H](C(=O)NCc1ccccc1)C(C)C |  | MT-4 | ROD | p24 | >3 µM
C=C1[C@H](CO)[C@H]1Cn1cnc2nc(N)nc(Cl)c21 |  |  |  |  | >100 µM
CCCC(CCC)(NP(=O)(OC[C@@H]1C=C[C@H](n2cc(C)c(=O)[nH]c2=O)O1)Oc1ccccc1)C(=O)OC |  | CEM |  |  | 50 µM
O=c1ccn([C@H]2CCC[C@@H]2CO)c(=O)[nH]1 |  | CEM |  | cytopathic effect | >100 µg/mL
C[C@]12CCC3C(CC=C4CC(O)CC[C@@]43C)C1CCC2C1=NN(C(N)=S)C(c2ccc(C(F)(F)F)cc2)C1 |  | MT-4 | ROD | MTT | >7.92 µM
Cc1ccccc1-c1nnc2sc(CC34CC5CC(CC(C5)C3)C4)nn12 |  | MT-4 | ROD | cytopathic effect / MTT | >11.5 µg/mL
C=C1[C@H](CO)[C@H]1Cn1cnc2c(Cl)ncnc21 |  |  |  |  | >100 µM
CCCOC12CS(=O)(=O)OC13[C@@H](CN2)O[C@@H](n1cc(C)c(=O)[nH]c1=O)[C@@H]3O[Si](C)(C)C(C)(C)C |  | CEM | ROD |  | >10 µM
COc1cc(CS(=O)(=O)c2cccc[n+]2[O-])ccc1OCc1ccccc1 |  | CEM + CEM-SS | ROD | syncytia | >4 µg/mL
CCO[C@]12CS(=O)(=O)O[C@@]13[C@@H](CN2)O[C@@H](n1cc(C)c(=O)[nH]c1=O)[C@@H]3O[Si](C)(C)CCC(C)(C)C |  | CEM | ROD |  | >10 µM
Cc1cn([C@H]2C[C@H](N=[N+]=[N-])[C@@H](CO)O2)c(=O)[nH]c1=O |  | MT-4 | IIIB | MTT | 0.00061 µg/mL
Nc1nc2c(ncn2[C@H]2C=C[C@@H](CO)C2)c(=O)[nH]1 |  | CEM | ROD | syncytia | 2.3 µM
Cn1c(=O)cc(Oc2nc(Nc3ccc(C#N)cc3)nc(Oc3cc(=O)n(C)c4ccccc34)n2)c2ccccc21 |  |  | ROD | MTT | >79.48 µg/mL
COc1c(Cl)cc(C(=CCC(=O)N[C@@H]2CC[C@@]3(C)[C@@H](CC[C@@H]4[C@@H]3CC[C@]3(C)[C@@H]([C@H](C)CCCC(C)C)CC[C@@H]43)C2)c2cc(Cl)c(OC)c(C(=O)O)c2)cc1C(=O)O |  | MT-4 | ROD | cytopathic effect / MTT | >6 µM
CCCn1c(Sc2ccccc2)c(N)c(=O)[nH]c1=O |  | MT-4 | ROD |  | >44.3 µg/mL
Cc1cn([C@@H]2O[C@@H]3CN[C@@]4(C#N)CS(=O)(=O)O[C@@]34[C@H]2O)c(=O)[nH]c1=O |  | MT-4 | ROD |  | >250 µM
CC(C)CCC[C@@H](C)[C@H]1CC[C@H]2[C@@H]3CC[C@H]4C[C@@H](NC(=O)C=C(c5cc(Cl)c(O)c(C(=O)O)c5)c5cc(Cl)c(O)c(C(=O)O)c5)CC[C@]4(C)[C@H]3CC[C@]12C |  | MT-4 | ROD | cytopathic effect / MTT | 9.8 µM
CCCC[C@H](NP(=O)(OC[C@@H]1C=C[C@H](n2cc(C)c(=O)[nH]c2=O)O1)Oc1ccccc1)C(=O)OC |  | CEM + CEM TK- |  |  | 0.22 µM
COC(=O)[C@H](C)NP(=O)(OC[C@@H]1C=C[C@H](n2cnc3c(=O)[nH]c(N)nc32)C1)Oc1ccccc1 |  | CEM | ROD | syncytia | 0.85 µM
CSS[C@H]1C[C@H](n2cc(C)c(=O)[nH]c2=O)O[C@@H]1CO |  | CEM | ROD | syncytia | 37 µM
CCCc1cc(=O)oc2c3c(c4c(c12)OC(C)(C)CC4)O[C@@H](C)[C@H](C)[C@@H]3O |  | CEM + CEM-SS | ROD | XTT | >10 µM
Cn1c(=O)cc(Oc2nc(Nc3ccc(C#N)cc3)nc(Nc3nc4ccc([N+](=O)[O-])cc4s3)n2)c2ccccc21 |  |  | ROD | MTT | >69.28 µg/mL
C=C1[C@H](CO)[C@H]1Cn1cnc2c(=O)[nH]c(N)nc21 |  |  |  |  | >100 µM
CCCCO[C@]12CS(=O)(=O)O[C@@]13[C@@H](CN2)O[C@@H](n1cc(C)c(=O)[nH]c1=O)[C@@H]3O |  | MT-4 | ROD |  | >125 µM
Cc1ccnc2c1NC(=O)c1cccnc1N2C1CC1 | K103N | MT-4 | ROD | MTT | >15 µM
Cc1cn([C@@H]2O[C@@H]3CN[C@@]4(OCC(C)(C)C)CS(=O)(=O)O[C@@]34[C@H]2O[Si](C)(C)C(C)(C)C)c(=O)[nH]c1=O |  | MT-4 | ROD |  | <10 µM
Cn1c(Sc2cc[n+]([O-])cc2)c([N+](=O)[O-])c(=O)n(C)c1=O |  | MT-4 | ROD |  | >0.275 µg/mL
Clc1cccc(-c2nnc3sc(CC45CC6CC(CC(C6)C4)C5)nn23)c1 |  | MT-4 | ROD | cytopathic effect / MTT | >125 µg/mL
Cc1ccc(C)c(CS(=O)c2ccc(Cl)c[n+]2[O-])c1 |  | CEM | EHO | syncytia | 2.4 µg/mL
CC(C)[C@H](NC(=O)OCc1ccccc1)C(=O)N[C@@H](Cc1ccccc1)[C@@H](O)[C@@H](NCc1ccc(Br)cc1)C(=O)N[C@H](C(=O)NCc1nc2ccccc2[nH]1)C(C)C |  | MT-4 | EHO | p24 | 0.68 µM
COc1cc(-c2nnc(Sc3nc(Nc4ccc(C#N)cc4)nc(Oc4cc(=O)n(C)c5ccccc45)n3)o2)cc(OC)c1OC |  |  | ROD | MTT | >65.13 µg/mL